Anti-infective test results gathered from many reports (values: NIAID ChemDB through PubChem).

Shared fields: growth or infection tests; species: Coxsackie virus; measure: EC50

Neighbouring rows are from separate reports.

| structure | strain or isolate | method | cells | value |
|---|---|---|---|---|
| CCOC(=O)CSc1nnc(-c2cn(-c3ccccc3)nc2-c2ccccc2)n1N | TYPE B4 | cytopathic effect | VERO | >16 µg/mL |
| CC=NC(=N)c1nc(-c2ccc(C)cc2)n(Cc2ccccc2)n1 | TYPE B4 | cytopathic effect | VERO | >10 µg/mL |
| Cc1ccc(C(=O)CCCCCCOc2ccc(C3=NCC(C)O3)cc2)s1 | TYPE B2 | cytopathic effect | VERO | >25.97 µM |
| COc1cc2c(cc1OC)[C@@H]1C(N)CSCON1CC2 | TYPE B4 | cytopathic effect | VERO | 0.2 µg/mL |
| CCOC(=O)C1Sc2nnc(-c3cn(-c4ccccc4)nc3-c3ccccc3)n2NC1=O | TYPE B4 | cytopathic effect | HeLa | >80 µg/mL |
| Cc1cn([C@@H]2OC[C@H](CO)[C@H]2N=[N+]=[N-])c(=O)[nH]c1=O | TYPE B4 | cytopathic effect | HeLa | >80 µg/mL |
| CCS(=O)(=O)c1ccc(Cc2ccc(Cl)c(Cl)c2)nc1 | TYPE A21 | cytopathic effect | HeLa | 1.3 µg/mL |
| Cc1ccc(C(=O)CCCCOc2ccc(C3=N[C@@H](C)CO3)cc2)s1 | TYPE B2 | cytopathic effect | VERO | 4.76 µM |
| CCOC(=O)C1=CSc2nnc(-c3cn(-c4ccccc4)nc3-c3ccccc3)n2N=C1N | TYPE B4 | cytopathic effect | VERO | >16 µg/mL |
| COc1ccc(CNc2ccc(S(C)(=O)=O)cn2)cc1OC | TYPE A21 | cytopathic effect | HeLa | >10 µg/mL |
| C=CC1=C[C@@H](n2cnc3c(N)ncnc32)[C@H](O)[C@@H]1O | TYPE B4 | cytopathic effect | HeLa | >400 µg/mL |
| Nc1ncnc2c1ncn2[C@H]1OC[C@@H](CO)C1O | TYPE B4 | cytopathic effect | HeLa | >80 µg/mL |
| C=C(N=CC)c1nc(-c2ccc(C)cc2)n(C2O[C@H](CO)[C@@H](O)[C@H](O)[C@H]2O)n1 | TYPE B4 | cytopathic effect | HeLa | >200 µg/mL |
| Nc1ncnc2c1ncn2[C@@H]1C=C(CO)[C@@H](O)[C@H]1O | TYPE B4 | cytopathic effect | VERO | >40 µg/mL |
| Cc1ccc(C(=O)CCCCCCOc2ccc(C3=NCCO3)cc2Cl)s1 | TYPE B2 | cytopathic effect | VERO | 1.52 µM |
| CC1(CO)CCC(Cn2cnc3c(=O)[nH]cnc32)C1(C)C | TYPE B4 | cytopathic effect | HeLa | >100 µg/mL |
| Nc1nc2c(ncn2[C@H]2OC[C@@H](CO)C2O)c(=O)[nH]1 | TYPE B4 | cytopathic effect | VERO | >16 µg/mL |
| CC=NC(=N)c1nc(-c2cccc(OC)c2)n(C/C=C/c2ccccc2)n1 | TYPE B4 | cytopathic effect | VERO | >40 µg/mL |
| CS(=O)(=O)c1ccc(NCc2ccc(Cl)c(Cl)c2)nc1 | TYPE B3 | cytopathic effect | HeLa | >10 µg/mL |
| N#CC1=CSc2nnc(-c3cn(-c4ccccc4)nc3-c3ccccc3)n2N=C1N | TYPE B4 | cytopathic effect | HeLa | >16 µg/mL |
| CSc1nsc(-c2ccc(OCCc3ccccc3)cc2)c1C#N | TYPE B1 | plaque count | HEP-2/L-929/VERO | 10 µM |
| Cc1ccc(Cc2ccc(S(C)(=O)=O)cn2)cc1 | TYPE A21 | cytopathic effect | HeLa | >10 µg/mL |
| CSc1nsc(-c2ccc(OCCOc3ccc(C#N)cc3)cc2)c1C#N | TYPE B1 | plaque count | HEP-2/L-929/VERO | >2 µM |
| CC=NC(=N)c1nc(-c2ccccc2)n(COCCO)n1 | TYPE B4 | cytopathic effect | VERO | >200 µg/mL |
| CC1(C)[C@@H](CCO)C[C@H]1n1nnc2c(N)nc(N)nc21 | TYPE B4 | cytopathic effect | VERO | >400 µg/mL |
| OCCCCn1cc(Cn2ncc3c(NCc4ccccc4)ncnc32)nn1 | B4 | - | HeLa | >400 µg/mL |
| COc1ccc2[nH]c3c(c2c1)CCN1OCSCC(N)[C@@H]31 | TYPE B4 | cytopathic effect | VERO | 0.07 µg/mL |
| Nc1ncnc2c1cnn2Cc1cn(CCCCO)nn1 | B4 | - | VERO | >400 µg/mL |
| O=c1[nH]n2c(-c3cn(-c4ccccc4)nc3-c3ccccc3)nnc2s1 | TYPE B4 | cytopathic effect | VERO | >80 µg/mL |
| Cc1ccc(C(=O)CCCCCCOc2ccc(C3=N[C@@H](C)CO3)cc2)s1 | TYPE B5 | cytopathic effect | VERO | >25.97 µM |
| CSc1nsc(-c2ccc(OCCCc3ccccc3)cc2)c1C#N | TYPE B1 | plaque count | HEP-2/L-929/VERO | 10 µM |
| CS(=O)(=O)c1ccc(Cc2ccc(Sc3ccccc3)cc2)nc1 | TYPE A21 | cytopathic effect | HeLa | <0.6 µg/mL |
| CSc1nsc(-c2ccc(OCCCOc3ccc([N+](=O)[O-])cc3)cc2)c1C#N | TYPE B1 | plaque count | HEP-2/L-929/VERO | >0.5 µM |
| S=c1[nH]n2c(-c3cn(-c4ccccc4)nc3-c3ccccc3)nnc2s1 | TYPE B4 | cytopathic effect | HeLa | >80 µg/mL |
| CCOC(=O)c1ccc(OCCCCC(=O)c2ccc(C)s2)cc1 | TYPE B2 | cytopathic effect | VERO | >26.72 µM |
| CC1(C)[C@@H](CCO)C[C@H]1n1cnc2c(=O)[nH]cnc21 | TYPE B4 | cytopathic effect | VERO | >400 µg/mL |
| O=c1[nH]cnc2c1cnn2Cc1cn(CCCCO)nn1 | B4 | - | HeLa | >400 µg/mL |
| CS(=O)(=O)c1ccc(Cc2ccc(Cl)c(Cl)c2)nc1 | TYPE B4 | cytopathic effect | HeLa | >10 µg/mL |
| CON1CCc2c([nH]c3ccccc23)[C@@H]1[C@@H](N)CSC | TYPE B4 | cytopathic effect | HeLa | >10 µg/mL |
| CC1(C)[C@@H](CCO)C[C@H]1n1cnc2c(=O)[nH]c(N)nc21 | TYPE B4 | cytopathic effect | HeLa | >400 µg/mL |
| CSCC1=C[C@@H](n2cnc3c(N)ncnc32)[C@H](O)[C@@H]1O | TYPE B4 | cytopathic effect | VERO | >200 µg/mL |
| CC1(CO)CCC(Cn2ccc(=O)[nH]c2=O)C1(C)C | TYPE B4 | cytopathic effect | VERO | >400 µg/mL |
| O=C(Nn1c(-c2cn(-c3ccccc3)nc2-c2ccccc2)n[nH]c1=S)c1ccccc1 | TYPE B4 | cytopathic effect | VERO | >16 µg/mL |
| CCOC(=O)c1ccc(OCCCOc2ccc(-c3snc(SC)c3C#N)cc2)cc1 | TYPE B1 | plaque count | HEP-2/L-929/VERO | >2 µM |
| Cc1ccc(C(=O)CCCCCCOc2ccc(C3=N[C@H](C)CO3)cc2)s1 | TYPE B5 | cytopathic effect | VERO | >25.97 µM |
| NC1=CC(c2ccccc2)=Nn2c(nnc2-c2cn(-c3ccccc3)nc2-c2ccccc2)S1 | TYPE B4 | cytopathic effect | VERO | 80 µg/mL |
| CCOC(=O)c1ccc(OCCC2CCN(c3ccc(C)nn3)CC2)cc1 | TYPE B1 | plaque count | HEP-2/L-929/VERO | 3 µM |
| CC1(CO)CCC(Cn2nnc3c(N)ncnc32)C1(C)C | TYPE B4 | cytopathic effect | VERO | >40 µg/mL |

A second listing of 3 rows from above:

structure | strain or isolate | method | cells | value
CON1CCc2c([nH]c3ccccc23)[C@@H]1[C@@H](N)CSC | TYPE B4 | cytopathic effect | HeLa | >10 µg/mL
CC=NC(=N)c1nc(-c2ccccc2)n(COCCO)n1 | TYPE B4 | cytopathic effect | VERO | >200 µg/mL
COc1ccc(CNc2ccc(S(C)(=O)=O)cn2)cc1OC | TYPE A21 | cytopathic effect | HeLa | >10 µg/mL

ECn is the concentration giving n% inhibition of infection, replication or growth. Blank or dashed fields: not listed here.